Results taken from article PMC7022392, “Chemoenzymatic Synthesis of Enantiomeric, Bicyclic δ-Halo-γ-lactones with a Cyclohexane Ring, Their Biological Activity and Interaction with Biological Membranes” (Biomolecules, 2020).

Tested on: red blood cell membranes (RBCMs)
Assay: Fluorescence spectroscopy, Laurdan generalized polarization
Parameters: species or system pig
Conditions: 80 and 100 µM, 37 °C

Compound	change of generalized polarization (GP) of Laurdan probe
C[C@@H](I)[C@]12CCCC[C@H]1CC(=O)O2 [6a, (−)-(1S,6S,1′R)-1-(1′-Iodoethyl)-9-oxabicyclo[4.3.0]nonan-8-one]	slight increase
C[C@H](I)[C@@]12CCCC[C@@H]1CC(=O)O2 [6b, (+)-(1R,6R,1′S)-1-(1′-Iodoethyl)-9-oxabicyclo[4.3.0]nonan-8-one]	slight increase
C[C@@H](Br)[C@]12CCCC[C@H]1CC(=O)O2 [7a, (−)-(1S,6S,1′R)-1-(1′-Bromoethyl)-9-oxabicyclo[4.3.0]nonan-8-one]	small decrease
C[C@H](Br)[C@@]12CCCC[C@@H]1CC(=O)O2 [7b, (+)-(1R,6R,1′S)-1-(1′-Bromoethyl)-9-oxabicyclo[4.3.0]nonan-8-one]	small decrease
C[C@@H](Cl)[C@]12CCCC[C@H]1CC(=O)O2 [8a, (−)-(1S,6S,1′R)-1-(1′-Chloroethyl)-9-oxabicyclo[4.3.0]nonan-8-one]	slight increase
C[C@H](Cl)[C@@]12CCCC[C@@H]1CC(=O)O2 [8b, (+)-(1R,6R,1′S)-1-(1′-Chloroethyl)-9-oxabicyclo[4.3.0]nonan-8-one]	slight increase
